Test system: O=[N+]([O-])c1ccc(OP(=O)(O)Oc2ccc([N+](=O)[O-])cc2)cc1
Test: purified protein
Conditions: pH 7.0; 37.0 °C

“PptH (Rv2795c) (Mycobacterium tuberculosis H37Rv)” was tested, and the Km was 17.8 ± 2.8 mM.
